{"source": "the supplement of paper PMC13380429", "details_in_all_cases": "24 h", "key": {"[1]": {"test_system": "A549-ACE2 infected with SARS-CoV-2", "assay": "cell count relative to DMSO; higher = less toxic"}, "[2]": {"test_system": "A549-ACE2 infected with SARS-CoV-2", "assay": "SARS-CoV-2 infection rate relative to DMSO; higher = more infection"}, "[3]": {"test_system": "A549-ACE2 infected with SARS-CoV-2", "assay": "morphology score (similarity to uninfected cells); higher = more like uninfected cells"}}, "data": [{"smiles": "N=C(N)NCCC[C@H](N)C(=O)NCC(=O)N[C@@H](CC(=O)O)C(=O)N[C@@H](CO)C(=O)O", "note": "[DU-728]", "values": [{"measurement": "cell count", "setting": "[1]; 0.3 µM", "result": 99, "unit": "%"}, {"measurement": "cell count", "setting": "[1]; 3 µM", "result": 99, "unit": "%"}, {"measurement": "cell count", "setting": "[1]; 10 µM", "result": 97, "unit": "%"}, {"measurement": "cell count", "setting": "[1]; 30 µM", "result": 101, "unit": "%"}, {"measurement": "SARS-CoV-2 infection rate", "setting": "[2]; 0.3 µM", "result": 100, "unit": "%"}, {"measurement": "SARS-CoV-2 infection rate", "setting": "[2]; 3 µM", "result": 101, "unit": "%"}, {"measurement": "SARS-CoV-2 infection rate", "setting": "[2]; 10 µM", "result": 102, "unit": "%"}, {"measurement": "SARS-CoV-2 infection rate", "setting": "[2]; 30 µM", "result": 99, "unit": "%"}, {"measurement": "morphology score", "setting": "[3]; 0.3 µM", "result": 0.14}, {"measurement": "morphology score", "setting": "[3]; 3 µM", "result": -0.11}, {"measurement": "morphology score", "setting": "[3]; 10 µM", "result": -0.04}, {"measurement": "morphology score", "setting": "[3]; 30 µM", "result": 0.1}]}]}
